Target: GluN1/N2A NMDA receptors (Homo sapiens, UniProt Q05586+Q12879)
Experiment: Flexstation Ca2+ measurements of NMDA/glycine evoked responses in Ltk‐ cells
Conditions: NMDA 100 μM + glycine 50 μM; up to 100 μM

Chains of the proteins cited; added tags and fusions are not shown. Lines headed by an entry give the natural chain unless they say otherwise; changes in a name come on top. Residues count along the entry.
UniProt Q12879, 23-1464 limits assumed: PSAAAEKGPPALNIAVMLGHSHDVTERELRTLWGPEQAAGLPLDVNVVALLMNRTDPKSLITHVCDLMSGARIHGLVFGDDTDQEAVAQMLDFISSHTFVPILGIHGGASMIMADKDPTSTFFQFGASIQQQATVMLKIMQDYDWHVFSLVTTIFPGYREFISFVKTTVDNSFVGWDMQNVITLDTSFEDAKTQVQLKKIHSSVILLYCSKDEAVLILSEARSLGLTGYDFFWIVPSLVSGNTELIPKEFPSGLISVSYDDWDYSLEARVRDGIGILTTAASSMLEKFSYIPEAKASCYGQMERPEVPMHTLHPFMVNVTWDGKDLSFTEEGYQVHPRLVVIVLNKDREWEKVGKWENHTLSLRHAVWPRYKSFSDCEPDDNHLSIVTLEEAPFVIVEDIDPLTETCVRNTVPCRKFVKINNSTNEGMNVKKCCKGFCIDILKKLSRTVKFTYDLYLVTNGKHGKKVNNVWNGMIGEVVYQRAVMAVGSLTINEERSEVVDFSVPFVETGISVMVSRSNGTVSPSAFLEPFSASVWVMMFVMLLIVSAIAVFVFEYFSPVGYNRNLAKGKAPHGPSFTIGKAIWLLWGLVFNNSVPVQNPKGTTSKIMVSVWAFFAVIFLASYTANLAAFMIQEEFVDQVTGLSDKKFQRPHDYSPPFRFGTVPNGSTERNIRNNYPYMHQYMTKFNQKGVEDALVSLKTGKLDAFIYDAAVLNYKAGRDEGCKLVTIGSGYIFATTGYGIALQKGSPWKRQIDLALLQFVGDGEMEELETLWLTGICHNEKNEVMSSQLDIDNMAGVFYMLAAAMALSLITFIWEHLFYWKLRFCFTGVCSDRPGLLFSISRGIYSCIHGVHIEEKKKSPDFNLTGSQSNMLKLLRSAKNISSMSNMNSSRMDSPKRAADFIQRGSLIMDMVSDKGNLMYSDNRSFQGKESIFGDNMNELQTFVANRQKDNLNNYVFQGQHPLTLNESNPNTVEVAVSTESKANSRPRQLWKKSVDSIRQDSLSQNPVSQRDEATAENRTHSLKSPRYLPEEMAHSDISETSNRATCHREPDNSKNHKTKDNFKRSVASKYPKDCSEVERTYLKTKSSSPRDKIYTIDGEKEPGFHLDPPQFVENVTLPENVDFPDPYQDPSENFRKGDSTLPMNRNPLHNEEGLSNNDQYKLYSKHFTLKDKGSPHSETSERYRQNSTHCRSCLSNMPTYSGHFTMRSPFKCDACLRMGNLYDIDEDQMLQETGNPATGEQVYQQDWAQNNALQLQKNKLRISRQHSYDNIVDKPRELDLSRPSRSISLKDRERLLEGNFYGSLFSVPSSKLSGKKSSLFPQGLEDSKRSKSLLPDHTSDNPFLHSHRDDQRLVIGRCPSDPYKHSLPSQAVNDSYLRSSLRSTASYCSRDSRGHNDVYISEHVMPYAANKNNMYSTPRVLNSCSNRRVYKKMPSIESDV

Compound: C1CCC(N2CCNCC2)CC1
- concentration‐dependent inhibition of NMDA receptors: did not show concentration‐dependent inhibition

Reference: paper PMC7348096
